RC index of single-base changes in HIV-1 Gag

Protein: Gag of HIV-1 NL4-3, numbered from its first residue. Gag is numbered as the whole polyprotein.
"Other frame" gives the effect on an overlapping gene as the source lists it; other overlaps (genes, RNA elements) are not shown.

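Seven fragments of pNL4-3 were mutated by error-prone PCR, and each virus pool was passaged in CEM T cells. Sequencing gave the RC index: frequency after two rounds over frequency in the input plasmid.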

Values are the RC index; higher means better tolerated. The authors read about 0.1 or less as lethal, 0.1-0.2 as attenuated and 0.2 or more as tolerated. A change reads original residue, position, new residue.

| substitution | base | region | other frame | RC index |
|---|---|---|---|---|
| G381V | G1931T | NC p7 | none | 0.0396 |
| S368R | C1893G | p2 | none | 0.0165 |
| E74V | A1010T | MA | none | 0.0714 |
| M276T | T1616C | CA | none | 0.0571 |
| I92K | T1064A | MA | none | 0.0169 |
| S77T | T1018A | MA | none | 0.0681 |
| I333N | T1787A | CA | none | 0.0432 |
| G338V | G1802T | CA | none | 0.0943 |
| A179S | G1324T | CA | none | 0.0744 |
| I92T | T1064C | MA | none | 0.0887 |
| E74Q | G1009C | MA | none | 0.100 |
| Q141E | C1210G | CA | none | 0.0477 |
| C87R | T1048C | MA | none | 0.0740 |
| G226A | G1466C | CA | none | 0.104 |
| Q90H | A1059C | MA | none | 0.0518 |
| K202R | A1394G | CA | none | 0.0641 |
| K110E | A1117G | MA | none | 0.0440 |
| V297A | T1679C | CA | none | 0.0631 |
| L334F | A1791T | CA | none | 0.260 |
| S126R | C1167G | MA | none | 0.0686 |
| R20P | G848C | MA | none | 0.0160 |
| I285K | T1643A | CA | none | 0.0296 |
| A37V | C899T | MA | none | 0.399 |
| N206I | A1406T | CA | none | 0.0267 |
| E73K | G1006A | MA | none | 0.272 |
| S38G | A901G | MA | none | 0.158 |
| R232T | G1484C | CA | none | 0.0935 |
| S368N | G1892A | p2 | none | 0.237 |
| E73D | A1008T | MA | none | 0.0355 |
| N131D | A1180G | MA | none | 0.0309 |
| K272N | A1605T | CA | none | 0.0184 |
| W438G | T2101G | p1 | none | 0.0368 |
| Q130H | A1179T | MA | none | 0.0163 |
| L41I | C910A | MA | none | 0.0610 |
| F300S | T1688C | CA | none | 0.103 |
| N206K | T1407A | CA | none | 0.0550 |
| S6T | T805A | MA | none | 0.0329 |
| G396S | G1975A | NC p7 | none | 0.193 |
| I333V | A1786G | CA | none | 0.0331 |
| Q195H | A1374C | CA | none | 0.0480 |
| G221V | G1451T | CA | none | 0.121 |
| W265R | T1582A | CA | none | 0.0686 |
| L304P | T1700C | CA | none | 0.0855 |
| E208V | A1412T | CA | none | 0.0921 |
| Q227P | A1469C | CA | none | 0.0950 |
| P231S | C1480T | CA | none | 0.0669 |
| G288R | G1651A | CA | none | 0.399 |
| C87S | G1049C | MA | none | 0.0508 |
| R444G | A2119G | p1 / p6* | p6* K4R | 0.104 |
| Y79H | T1024C | MA | none | 0.130 |
| A220P | G1447C | CA | none | 0.279 |
| S38I | G902T | MA | none | 0.129 |
| R232K | G1484A | CA | none | 0.365 |
| P133R | C1187G | CA | none | 0.0289 |
| M198L | A1381T | CA | none | 0.0389 |
| G193V | G1367T | CA | none | 0.147 |
| A118P | G1141C | MA | none | 0.0488 |
| M187I | G1350C | CA | none | 0.0548 |
| R20L | G848T | MA | none | 0.0565 |
| M346L | A1825T | CA | none | 0.0415 |
| E74D | A1011T | MA | none | 0.0278 |
| A326T | G1765A | CA | none | 0.189 |
| T240N | C1508A | CA | none | 0.0503 |
| I256S | T1556G | CA | none | 0.134 |
| T318S | A1741T | CA | none | 0.0476 |
| D121E | C1152G | MA | none | 0.0309 |
| A220E | C1448A | CA | none | 0.102 |
| A431V | C2081T | NC p7 | none | 0.305 |
| L363S | T1877C | CA | none | 0.0185 |
| H400Q | C1989A | NC p7 | none | 0.218 |
| A309P | G1714C | CA | none | 0.299 |
| A364S | G1879T | p2 | none | 0.0522 |
| Q117E | C1138G | MA | none | 0.0333 |
| T303S | A1696T | CA | none | 0.0536 |
| A306S | G1705T | CA | none | 0.785 |
| K272I | A1604T | CA | none | 0.158 |
| K359R | A1865G | CA | none | 0.0143 |
| F393I | T1966A | NC p7 | none | 0.0166 |
| A210E | C1418A | CA | none | 0.0982 |
| N153T | A1247C | CA | none | 0.0239 |
| K418Q | A2041C | NC p7 | none | 0.0848 |
| K98Q | A1081C | MA | none | 0.857 |
| G24R | G859A | MA | none | 0.0890 |
| K202I | A1394T | CA | none | 0.0522 |
| K314R | A1730G | CA | none | 0.0300 |
| V88E | T1052A | MA | none | 0.0225 |
| L152S | T1244C | CA | none | 0.0508 |
| A374D | C1910A | p2 | none | 0.0369 |
| D121V | A1151T | MA | none | 0.0282 |
| I267T | T1589C | CA | none | 0.133 |
| G226D | G1466A | CA | none | 0.113 |
| V218G | T1442G | CA | none | 0.150 |
| I266T | T1586C | CA | none | 0.105 |
| A163T | G1276A | CA | none | 0.144 |
| A224T | G1459A | CA | none | 0.0735 |
| A326G | C1766G | CA | none | 0.0566 |
| Q308R | A1712G | CA | none | 0.0343 |
| G381C | G1930T | NC p7 | none | 0.0837 |
| K418N | G2043T | NC p7 | none | 0.145 |
| V88L | G1051C | MA | none | 0.0253 |
| I205L | A1402C | CA | none | 0.0733 |
| L78F | A1023T | MA | none | 0.0276 |
| A366T | G1885A | p2 | none | 0.0665 |
| L138H | T1202A | CA | none | 0.0851 |
| M171V | A1300G | CA | none | 0.0763 |
| I378T | T1922C | NC p7 | none | 0.157 |
| G56V | G956T | MA | none | 0.146 |
| H89R | A1055G | MA | none | 0.0656 |
| P356H | C1856A | CA | none | 0.0442 |
| A5P | G802C | MA | none | 0.171 |
| H216N | C1435A | CA | none | 0.0434 |
| G399R | G1984A | NC p7 | none | 0.457 |
| A119T | G1144A | MA | none | 0.295 |
| V35E | T893A | MA | none | 0.0724 |
| I285T | T1643C | CA | none | 0.0817 |
| D102V | A1094T | MA | none | 0.0654 |
| W36C | G897T | MA | none | 0.178 |
| A360V | C1868T | CA | none | 0.0706 |
| V258L | G1561C | CA | none | 0.0813 |
| K157N | A1260T | CA | none | 0.0290 |
| Y86H | T1045C | MA | none | 0.561 |
| Q227L | A1469T | CA | none | 0.0515 |
| N124I | A1160T | MA | none | 0.0198 |
| L68F | C991T | MA | none | 0.136 |
| G435V | G2093T | p1 | none | 0.0532 |
| I285R | T1643G | CA | none | 0.196 |

The last 5 entries again:

{"substitution": "Q227L", "base": "A1469T", "region": "CA", "other frame": "none", "RC index": 0.0515}
{"substitution": "N124I", "base": "A1160T", "region": "MA", "other frame": "none", "RC index": 0.0198}
{"substitution": "L68F", "base": "C991T", "region": "MA", "other frame": "none", "RC index": 0.136}
{"substitution": "G435V", "base": "G2093T", "region": "p1", "other frame": "none", "RC index": 0.0532}
{"substitution": "I285R", "base": "T1643G", "region": "CA", "other frame": "none", "RC index": 0.196}

Since each clone held several changes (about five per kb), neutral changes can read low. The authors read an index above 1 as above wild type (1.9% of all changes in the genome). Nucleotide positions follow pNL4-3.

Source: Al-Mawsawi et al. 2014 (doi:10.1186/s12977-014-0124-6), supplementary data.